Data reported in PMC6722883 (FEBS Open Bio, 2019).

Assay: Degradation kinetics, influence of pH
Conditions: potassium phosphate buffer, ionic strength 0.3 M

CC[C@H](C)[C@@H]1NC(=O)[C@@H]2CCCN2C(=O)[C@H](CO)NC(=O)[C@H](CCSC)NC(=O)[C@H](C)NC(=O)[C@H](CO)NC(=O)[C@@H]2CSSC[C@H](NC(=O)CN)C(=O)N[C@@H](CSSC[C@@H](C(N)=O)NC1=O)C(=O)N[C@@H](CO)C(=O)N[C@@H](Cc1c[nH]cn1)C(=O)N1CCC[C@H]1C(=O)N[C@@H](C(C)C)C(=O)N2 [TxID, α‐Conotoxin TxID]
Reaction rate at pH 3.0, times slower than at pH 2.0: roughly 14 times
